Measured values from several laboratories, pooled; numbers as filed in NIAID ChemDB.

All rows: whole-cell or culture tests; agent: Varicella zoster virus; cell line: HEL; measure: EC50

ECn is the concentration giving n% inhibition of infection, replication or growth.

{"SMILES": "CCCCCOc1ccc(-c2cc3cn([C@H]4C[C@H](O)[C@@H](CO)O4)c(=O)nc3o2)cc1", "strain": "OKA", "method": "cytopathic effect", "result": "<0.5 µM"}
{"SMILES": "CCCc1ccc(OCCCc2cc3cn([C@H]4C[C@H](O)[C@@H](CO)O4)c(=O)nc3o2)cc1", "strain": "(TK-)/YS/R", "method": "plaque count", "result": ">50 µM"}
{"SMILES": "Nc1ccn(C[C@@H](CO)OCP(=O)(O)O)c(=O)n1", "strain": "YS/R (TK-)", "method": "cytopathic effect", "result": "0.08 µM"}
{"SMILES": "Nc1nc2c(ncn2COC(CO)CO)c(=O)[nH]1", "strain": "YS/R (TK-)", "method": "plaque count", "result": "7.1 µM"}
{"SMILES": "O=C(O)P(=O)(O)O", "strain": "Oka penciclovir-resistant/A", "method": "cytopathic effect", "result": "326.3 µM"}
{"SMILES": "CO[C@H](CO)[C@@H](O)CCn1cnc2c(=O)[nH]c(N)nc21", "strain": "YS/R (TK-)", "method": "cytopathic effect", "result": ">400 µg/mL"}
{"SMILES": "Cc1c(Br)cc(Br)c2ncc(CSCc3ccccc3F)n12", "strain": "OKA (TK+)", "method": "plaque count", "result": ">5 µg/mL"}
{"SMILES": "NC1=NS(=O)(=O)N(Cc2ccccc2)c2nc(-c3ccc(Cl)cc3)[nH]c21", "strain": "OKA", "method": "plaque count", "result": ">5 µg/mL"}
{"SMILES": "CCCCCCOc1ccc(-c2cc3cn([C@H]4C[C@H](O)[C@@H](CO)O4)c(=O)nc3o2)cc1", "strain": "07/1 (TK-)", "method": "cytopathic effect", "result": ">50 µM"}
{"SMILES": "Nc1ccn(CCCC(O)CF)c(=O)n1", "strain": "YS", "method": "cytopathic effect", "result": ">50 µg/mL"}
{"SMILES": "Cc1c(Br)cc(Br)c2ncc(CSCc3cccs3)n12", "strain": "OKA (TK+)", "method": "plaque count", "result": ">2 µg/mL"}
{"SMILES": "O=c1[nH]c(=O)n([C@H]2C[C@H](O)[C@@H](CO)O2)cc1/C=C/Br", "strain": "13 isolates", "method": "plaque count", "result": "0.0033 µM"}
{"SMILES": "Nc1nc(=O)n([C@H]2C[C@H](O)[C@@H](CO)O2)cc1/C=C/Cl", "strain": "7/01 (TK-)", "method": "plaque count", "result": ">40 µg/mL"}
{"SMILES": "Nc1nc2c(ncn2CCC(CO)CO)c(=O)[nH]1", "strain": "Oka PFA-resistant/B", "method": "cytopathic effect", "result": "5.8 µM"}
{"SMILES": "O=c1[nH]c(=O)n([C@@H]2O[C@H](CO)[C@@H](O)[C@@H]2O)cc1/C=C/Br", "strain": "13 isolates", "method": "plaque count", "result": "0.00022 µM"}
{"SMILES": "Nc1ncnc2c1ncn2C[C@@H](CO)OCP(=O)(O)O", "strain": "Oka CF1603-resistant", "method": "cytopathic effect", "result": "0.028 µM"}
{"SMILES": "Cc1cn(C(CF)CCCO)c(=O)[nH]c1=O", "strain": "OKA", "method": "cytopathic effect", "result": ">50 µg/mL"}
{"SMILES": "O=C(O)CP(=O)(O)O", "strain": "07/1 (TK-)", "method": "plaque count", "result": "57.1 µM"}
{"SMILES": "O=c1[nH]c(=O)n([C@H]2C[C@H](O)[C@@H](CO)O2)cc1/C=C/Br", "strain": "YS", "method": "cytopathic effect", "result": "0.0047 µM"}
{"SMILES": "CCOC(=O)/C=C\\C=C\\[C@H]1O[C@@H](n2ccc(=O)[nH]c2=O)[C@H](O)[C@@H]1O", "strain": "YS", "result": "10 µM"}
{"SMILES": "Nc1nc2c(ncn2COC(CO)CO)c(=O)[nH]1", "strain": "YS", "method": "cytopathic effect", "result": "2.6 µM"}
{"SMILES": "Cc1c(Br)cc(Br)c2ncc(CSCCc3ccccc3)n12", "strain": "07/1 (TK-)", "method": "plaque count", "result": "3.6 µg/mL"}
{"SMILES": "O=c1[nH]c(=O)n([C@H]2C[C@H](O)[C@@H](CO)O2)cc1/C=C/Cl", "strain": "YS/R (TK-)", "method": "plaque count", "result": ">138 µM"}
{"SMILES": "Nc1nc2c(ncn2CC[C@H](O)CCO)c(=O)[nH]1", "strain": "OKA", "method": "cytopathic effect", "result": ">400 µg/mL"}
{"SMILES": "Cc1c(Br)cc(Br)c2ncc(CSCc3cccc(C(F)(F)F)c3)n12", "strain": "YS/R (TK-)", "method": "plaque count", "result": ">5 µg/mL"}
{"SMILES": "Nc1ccn(C[C@@H](CO)OCP(=O)(O)O)c(=O)n1", "strain": "Oka PFA-resistant/B", "method": "cytopathic effect", "result": "0.25 µM"}
{"SMILES": "O=c1nc2oc(CCCCOc3ccccc3)cc2cn1[C@H]1C[C@H](O)[C@@H](CO)O1", "strain": "(TK-)/YS/R", "method": "plaque count", "result": ">200 µM"}
{"SMILES": "CC(C)CS[C@H]1C[C@@H](n2cnc3c(N)ncnc32)[C@H](O)[C@@H]1O", "strain": "YS", "method": "cytopathic effect", "result": ">200 µg/mL"}
{"SMILES": "O=C(O)P(=O)(O)O", "strain": "YS/R (TK-)", "method": "plaque count", "result": "28.3 µM"}
{"SMILES": "Cc1ccc(OCCCc2cc3cn([C@H]4C[C@H](O)[C@@H](CO)O4)c(=O)nc3o2)cc1", "strain": "(TK+)/OKA", "method": "plaque count", "result": "5 µM"}
{"SMILES": "Nc1nc(=O)n([C@H]2C[C@H](O)[C@@H](CO)O2)cc1/C=C\\Cl", "strain": "7/01 (TK-)", "method": "plaque count", "result": ">40 µg/mL"}
{"SMILES": "Nc1nc2c(ncn2CCCC(O)CF)c(=O)[nH]1", "strain": "YS", "method": "cytopathic effect", "result": ">50 µg/mL"}
{"SMILES": "O=c1[nH]c(=O)n([C@H]2C[C@H](O)[C@@H](CO)O2)cc1I", "strain": "26", "method": "plaque count", "result": "0.78 µg/mL"}
{"SMILES": "CO[C@H](CO)[C@@H](O)CCn1cc(C)c(=O)[nH]c1=O", "strain": "YS", "method": "cytopathic effect", "result": ">400 µg/mL"}
{"SMILES": "Cc1c(Br)cc(Br)c2ncc(CSCCCc3ccccc3)n12", "strain": "YS (TK+)", "method": "plaque count", "result": "4 µg/mL"}
{"SMILES": "Nc1ccn([C@@H]2O[C@H](CO)[C@@H](O)[C@@H]2O)c(=O)n1", "strain": "OKA-H12", "method": "plaque count", "result": "0.13 µg/mL"}
{"SMILES": "Nc1ccn(C[C@@H](CO)OCP(=O)(O)O)c(=O)n1", "strain": "YS/R (TK-)", "method": "plaque count", "result": "0.08 µM"}
{"SMILES": "CO[C@H](CO)[C@@H](O)CCn1ccc(N)nc1=O", "strain": "YS/R (TK-)", "method": "cytopathic effect", "result": ">400 µg/mL"}
{"SMILES": "NC1=NC2C(C=CN2CC(CO)CCO)C(=O)N1", "strain": "YS (TK+)", "method": "plaque count", "result": "0.018 µM"}
{"SMILES": "CCCOc1ccc(-c2cc3cn([C@H]4C[C@H](O)[C@@H](CO)O4)c(=O)nc3o2)cc1", "strain": "YS/R (TK-)", "method": "cytopathic effect", "result": ">50 µM"}
{"SMILES": "Nc1nc(N)c2ncn(CCOCP(=O)(O)O)c2n1", "strain": "YS (TK+)", "method": "plaque count", "result": "4.4 µM"}
{"SMILES": "NC1=NS(=O)(=O)N(Cc2ccccc2)c2nc[nH]c21", "strain": "07/1 (TK-)", "method": "plaque count", "result": ">50 µg/mL"}
{"SMILES": "O=c1nc2oc(-c3ccc(Cl)cc3)cc2cn1[C@H]1C[C@H](O)[C@@H](CO)O1", "strain": "07/1 (TK-)", "method": "cytopathic effect", "result": ">50 µM"}

The last 2 rows once more:

{"SMILES": "NC1=NS(=O)(=O)N(Cc2ccccc2)c2nc[nH]c21", "strain": "07/1 (TK-)", "method": "plaque count", "result": ">50 µg/mL"}
{"SMILES": "O=c1nc2oc(-c3ccc(Cl)cc3)cc2cn1[C@H]1C[C@H](O)[C@@H](CO)O1", "strain": "07/1 (TK-)", "method": "cytopathic effect", "result": ">50 µM"}

Conditions beyond the fields shown may differ between rows.